Values of other authors, collected in paper PMC10301793 (Marine Drugs, 2023).
The match of structure and compound is tentative.

Protein sequences, listed by entry. Tags and fused reporters are not part of them. Residues count along the entry.
UniProt P09483, 31-630 limits assumed: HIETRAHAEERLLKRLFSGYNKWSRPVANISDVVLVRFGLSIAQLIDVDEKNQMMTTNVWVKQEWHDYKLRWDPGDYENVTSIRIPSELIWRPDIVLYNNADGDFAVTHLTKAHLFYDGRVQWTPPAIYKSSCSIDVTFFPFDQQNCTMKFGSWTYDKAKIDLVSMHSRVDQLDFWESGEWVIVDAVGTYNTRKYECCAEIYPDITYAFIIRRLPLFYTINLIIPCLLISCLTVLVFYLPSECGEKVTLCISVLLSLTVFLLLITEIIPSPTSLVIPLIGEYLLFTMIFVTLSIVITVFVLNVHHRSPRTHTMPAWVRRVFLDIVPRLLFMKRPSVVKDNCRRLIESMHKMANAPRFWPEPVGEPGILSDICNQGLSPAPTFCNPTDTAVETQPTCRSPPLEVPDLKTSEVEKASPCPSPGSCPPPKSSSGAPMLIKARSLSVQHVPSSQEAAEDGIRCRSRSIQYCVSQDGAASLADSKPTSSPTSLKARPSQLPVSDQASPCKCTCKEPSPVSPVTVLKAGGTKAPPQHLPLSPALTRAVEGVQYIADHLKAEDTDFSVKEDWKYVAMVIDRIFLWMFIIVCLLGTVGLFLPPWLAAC
UniProt P12390, 25-500 limits assumed: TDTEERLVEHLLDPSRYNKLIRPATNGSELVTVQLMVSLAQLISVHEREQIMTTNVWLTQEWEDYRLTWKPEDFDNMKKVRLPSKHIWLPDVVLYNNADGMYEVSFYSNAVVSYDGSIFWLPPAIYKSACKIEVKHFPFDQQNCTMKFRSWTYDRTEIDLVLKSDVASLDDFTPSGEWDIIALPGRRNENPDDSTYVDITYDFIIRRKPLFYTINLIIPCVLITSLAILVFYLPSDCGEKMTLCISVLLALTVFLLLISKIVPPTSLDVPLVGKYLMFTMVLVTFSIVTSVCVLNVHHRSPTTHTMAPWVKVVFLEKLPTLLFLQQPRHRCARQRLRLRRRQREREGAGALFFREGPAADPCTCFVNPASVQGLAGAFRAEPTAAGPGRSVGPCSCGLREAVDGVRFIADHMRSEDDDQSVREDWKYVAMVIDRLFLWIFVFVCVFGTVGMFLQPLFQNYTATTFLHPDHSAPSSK
UniProt P12390, whole entry, looked up: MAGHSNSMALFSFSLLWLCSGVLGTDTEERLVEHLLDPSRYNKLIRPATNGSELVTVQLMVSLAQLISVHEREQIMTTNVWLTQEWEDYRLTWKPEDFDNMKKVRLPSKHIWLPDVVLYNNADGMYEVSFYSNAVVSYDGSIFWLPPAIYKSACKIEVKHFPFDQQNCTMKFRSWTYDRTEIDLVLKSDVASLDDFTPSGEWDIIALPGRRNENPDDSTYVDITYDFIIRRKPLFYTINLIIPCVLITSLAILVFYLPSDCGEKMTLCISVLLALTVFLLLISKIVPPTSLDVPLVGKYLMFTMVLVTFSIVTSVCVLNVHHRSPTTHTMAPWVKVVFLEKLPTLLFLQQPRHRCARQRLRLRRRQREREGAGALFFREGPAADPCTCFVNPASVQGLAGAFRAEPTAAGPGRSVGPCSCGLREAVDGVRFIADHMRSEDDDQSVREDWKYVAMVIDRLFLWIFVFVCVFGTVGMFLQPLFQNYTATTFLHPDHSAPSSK
UniProt P04757, 26-499 limits assumed: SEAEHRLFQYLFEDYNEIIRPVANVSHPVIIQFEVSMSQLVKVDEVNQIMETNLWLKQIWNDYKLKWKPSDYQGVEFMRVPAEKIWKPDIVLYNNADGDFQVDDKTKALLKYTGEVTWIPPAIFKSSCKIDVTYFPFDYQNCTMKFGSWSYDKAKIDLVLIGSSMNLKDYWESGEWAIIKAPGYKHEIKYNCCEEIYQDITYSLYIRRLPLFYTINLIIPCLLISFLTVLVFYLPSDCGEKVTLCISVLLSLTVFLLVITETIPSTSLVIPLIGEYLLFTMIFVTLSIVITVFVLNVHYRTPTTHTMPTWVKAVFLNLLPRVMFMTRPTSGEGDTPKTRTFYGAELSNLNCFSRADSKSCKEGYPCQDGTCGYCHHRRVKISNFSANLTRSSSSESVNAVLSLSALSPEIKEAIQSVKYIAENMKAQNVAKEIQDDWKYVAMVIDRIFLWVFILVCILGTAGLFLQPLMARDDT
UniProt P04757, whole entry, looked up: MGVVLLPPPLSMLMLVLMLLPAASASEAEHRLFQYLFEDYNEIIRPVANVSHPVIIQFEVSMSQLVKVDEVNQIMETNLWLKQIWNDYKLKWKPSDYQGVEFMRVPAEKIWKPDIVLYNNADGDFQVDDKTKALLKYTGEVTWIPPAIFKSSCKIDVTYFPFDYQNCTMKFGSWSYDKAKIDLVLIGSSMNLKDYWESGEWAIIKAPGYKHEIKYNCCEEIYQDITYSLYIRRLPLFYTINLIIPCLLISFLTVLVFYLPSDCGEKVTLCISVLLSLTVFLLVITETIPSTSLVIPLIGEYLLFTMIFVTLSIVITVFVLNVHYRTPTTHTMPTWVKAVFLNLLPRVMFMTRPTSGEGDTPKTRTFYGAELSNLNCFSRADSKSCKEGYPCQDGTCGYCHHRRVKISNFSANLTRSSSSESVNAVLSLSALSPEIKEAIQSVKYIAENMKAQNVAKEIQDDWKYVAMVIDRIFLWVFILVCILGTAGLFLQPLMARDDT
UniProt P12392, 21-495 limits assumed: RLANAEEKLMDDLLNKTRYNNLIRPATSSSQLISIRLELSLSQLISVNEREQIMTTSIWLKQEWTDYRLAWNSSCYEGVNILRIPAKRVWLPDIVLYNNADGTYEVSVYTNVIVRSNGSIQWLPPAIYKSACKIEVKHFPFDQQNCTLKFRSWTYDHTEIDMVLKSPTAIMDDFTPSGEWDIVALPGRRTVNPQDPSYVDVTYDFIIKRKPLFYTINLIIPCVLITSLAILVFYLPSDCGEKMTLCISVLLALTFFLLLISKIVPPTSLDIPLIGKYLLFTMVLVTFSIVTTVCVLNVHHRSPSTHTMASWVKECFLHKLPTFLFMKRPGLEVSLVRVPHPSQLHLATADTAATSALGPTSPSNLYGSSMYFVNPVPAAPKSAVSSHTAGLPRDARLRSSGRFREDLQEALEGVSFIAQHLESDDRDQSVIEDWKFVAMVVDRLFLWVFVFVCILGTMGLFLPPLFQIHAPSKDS
UniProt P12392, whole entry, looked up: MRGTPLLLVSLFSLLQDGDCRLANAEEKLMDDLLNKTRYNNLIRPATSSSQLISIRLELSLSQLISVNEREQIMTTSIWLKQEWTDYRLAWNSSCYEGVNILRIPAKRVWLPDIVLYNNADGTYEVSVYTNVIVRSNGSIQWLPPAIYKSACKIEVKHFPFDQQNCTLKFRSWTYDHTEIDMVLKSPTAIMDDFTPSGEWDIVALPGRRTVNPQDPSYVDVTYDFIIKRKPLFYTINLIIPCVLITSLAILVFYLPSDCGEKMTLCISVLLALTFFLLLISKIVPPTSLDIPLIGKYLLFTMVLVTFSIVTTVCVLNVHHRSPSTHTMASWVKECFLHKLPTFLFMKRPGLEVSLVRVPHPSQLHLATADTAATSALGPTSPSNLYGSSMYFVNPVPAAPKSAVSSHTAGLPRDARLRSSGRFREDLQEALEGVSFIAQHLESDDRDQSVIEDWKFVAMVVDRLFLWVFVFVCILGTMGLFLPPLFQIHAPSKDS
UniProt P12389, 28-511 limits assumed: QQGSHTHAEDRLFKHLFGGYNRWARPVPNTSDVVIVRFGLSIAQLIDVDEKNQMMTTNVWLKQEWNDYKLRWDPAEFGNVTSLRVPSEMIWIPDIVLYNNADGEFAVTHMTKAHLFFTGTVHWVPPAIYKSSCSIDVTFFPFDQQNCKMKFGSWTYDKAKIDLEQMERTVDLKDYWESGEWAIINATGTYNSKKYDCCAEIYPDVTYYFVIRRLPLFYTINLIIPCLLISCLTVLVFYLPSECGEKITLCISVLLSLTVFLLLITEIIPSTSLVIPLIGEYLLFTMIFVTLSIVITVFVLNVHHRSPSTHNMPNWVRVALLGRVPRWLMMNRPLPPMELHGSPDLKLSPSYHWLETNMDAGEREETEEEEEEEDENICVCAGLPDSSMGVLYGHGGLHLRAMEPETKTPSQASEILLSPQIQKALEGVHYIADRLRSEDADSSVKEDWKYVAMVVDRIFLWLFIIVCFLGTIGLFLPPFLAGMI
UniProt P12391, whole entry, looked up: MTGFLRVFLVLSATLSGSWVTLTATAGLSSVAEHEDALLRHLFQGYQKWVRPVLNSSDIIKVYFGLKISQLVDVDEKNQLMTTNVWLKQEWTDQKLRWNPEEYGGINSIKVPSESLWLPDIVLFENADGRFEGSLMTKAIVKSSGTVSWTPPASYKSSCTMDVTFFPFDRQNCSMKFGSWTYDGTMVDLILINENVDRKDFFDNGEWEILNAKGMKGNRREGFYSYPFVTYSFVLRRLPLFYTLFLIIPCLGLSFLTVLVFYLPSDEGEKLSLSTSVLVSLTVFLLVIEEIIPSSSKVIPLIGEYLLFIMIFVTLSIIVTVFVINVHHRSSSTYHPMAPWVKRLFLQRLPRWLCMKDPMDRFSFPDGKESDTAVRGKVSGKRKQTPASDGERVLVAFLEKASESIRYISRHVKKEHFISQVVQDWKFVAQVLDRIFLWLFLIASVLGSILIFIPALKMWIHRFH
UniProt P43143, whole entry M241L/F253L/V303I/V320I/I327V/A333T/K339T, looked up: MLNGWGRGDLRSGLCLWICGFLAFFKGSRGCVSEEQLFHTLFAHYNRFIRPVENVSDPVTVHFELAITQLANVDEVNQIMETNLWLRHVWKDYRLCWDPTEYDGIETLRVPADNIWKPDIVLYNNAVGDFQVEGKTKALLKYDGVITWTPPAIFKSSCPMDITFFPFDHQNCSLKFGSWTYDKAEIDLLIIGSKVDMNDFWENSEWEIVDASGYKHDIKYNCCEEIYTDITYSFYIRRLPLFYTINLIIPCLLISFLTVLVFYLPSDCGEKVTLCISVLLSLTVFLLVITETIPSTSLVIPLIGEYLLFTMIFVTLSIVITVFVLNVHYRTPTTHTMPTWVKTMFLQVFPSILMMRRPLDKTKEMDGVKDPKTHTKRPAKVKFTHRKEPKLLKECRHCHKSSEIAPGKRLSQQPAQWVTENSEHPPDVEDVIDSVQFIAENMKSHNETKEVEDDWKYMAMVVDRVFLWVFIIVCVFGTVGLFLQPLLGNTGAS
UniProt Q05941, 23-502 limits assumed: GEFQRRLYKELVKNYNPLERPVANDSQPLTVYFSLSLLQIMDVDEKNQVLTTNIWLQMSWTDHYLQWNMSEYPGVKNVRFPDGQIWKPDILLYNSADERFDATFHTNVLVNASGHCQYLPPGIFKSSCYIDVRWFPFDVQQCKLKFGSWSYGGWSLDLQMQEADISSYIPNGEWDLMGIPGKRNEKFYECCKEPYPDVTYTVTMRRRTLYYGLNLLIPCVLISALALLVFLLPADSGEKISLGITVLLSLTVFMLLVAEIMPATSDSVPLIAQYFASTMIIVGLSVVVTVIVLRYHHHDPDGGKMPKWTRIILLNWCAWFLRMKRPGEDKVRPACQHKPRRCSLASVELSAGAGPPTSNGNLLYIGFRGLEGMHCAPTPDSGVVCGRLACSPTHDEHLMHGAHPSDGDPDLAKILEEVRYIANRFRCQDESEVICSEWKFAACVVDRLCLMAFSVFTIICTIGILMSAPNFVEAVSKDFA

Tests used:
[1] = target: α4β2 nAChR (Rattus norvegicus, UniProt P09483+P12390); conditions: ref [13]; cited from earlier work
[2] = target: α3β4 nAChR (Rattus norvegicus, UniProt P04757+P12392); conditions: ref [13]; cited from earlier work
[3] = target: α3β2 nAChR (Rattus norvegicus, UniProt P04757+P12390); conditions: ref [13]; cited from earlier work
[4] = target: α2β2 nAChR (Rattus norvegicus, UniProt P12389+P12390); conditions: ref [13]; cited from earlier work
[5] = target: α6/α3β2β3 nAChR (Rattus norvegicus, UniProt P04757+P12390+P12391+P43143); conditions: ref [13]; cited from earlier work
[6] = target: α6/α3β4 nAChR (Rattus norvegicus, UniProt P04757+P12392+P43143); conditions: ref [13]; cited from earlier work
[7] = target: α7 nAChR (Rattus norvegicus, UniProt Q05941); conditions: ref [13]; cited from earlier work
[8] = target: α4β4 nAChR (Rattus norvegicus, UniProt P09483+P12392); conditions: ref [13]; cited from earlier work
[9] = test system: other subtypes; conditions: at concentrations up to 10 μM; ref [14]; cited from earlier work

Row | Structure (SMILES) | IC50 [1] [nM] | Hill Slope [2] | Hill Slope [3] | Hill Slope [4] | Hill Slope [5] | Hill Slope [6] | Hill Slope [7] | Hill Slope [8] | inhibition of other subtypes [9]
1 | CC(C)C[C@@H]1NC(=O)[C@H](C(C)C)NC(=O)[C@H](C)NC(=O)[C@@H]2CSSC[C@H](NC(=O)CN)C(=O)N[C@@H](CSSC[C@@H](C(N)=O)NC(=O)[C@H](Cc3ccc(O)cc3)NC1=O)C(=O)N[C@@H](CO)C(=O)N[C@@H]([C@@H](C)O)C(=O)N1CCC[C@H]1C(=O)N1CCC[C@H]1C(=O)N2 | > 10 | −1.52 | −1.48 | −0.850 | −0.963 | −1.40 | −1.21 | −1.15 | –
2 | CC(C)[C@@H]1NC(=O)[C@@H]2CCCN2C(=O)[C@H](CC(N)=O)NC(=O)[C@H](C)NC(=O)[C@@H]2CSSC[C@@H](C(=O)N[C@@H](CCC(N)=O)C(=O)O)NC(=O)[C@H](Cc3c[nH]cn3)NC(=O)[C@H](CCCCN)NC(=O)CNC(=O)[C@H](CC(N)=O)NC(=O)[C@H](CSSC[C@H](NC(=O)[C@@H](N)CC(=O)O)C(=O)N2)NC1=O | – | – | – | – | – | – | – | – | hardly inhibited other subtypes
